A mixed list of measured activities; the numbers were collected in NIAID ChemDB.

Common to all: target-level tests; organism: Hepatitis C virus; target: NS5B polymerase; measure: IC50

ICn is the concentration giving n% inhibition. Lines come from different laboratories, so protocols vary. An empty or dashed field is not shown. a–b is a range or a potency band.

smiles	strain	method	result
O=C(N[C@@H](Cc1c[nH]c2ccccc12)C(=O)O)c1ccc2nc(-c3ccccc3)c(-c3ccccc3)nc2c1	-	-	10–50 µM
O=C(N[C@@H](Cc1ccc(O)cc1)C(=O)O)c1ccc2c(c1)nc(-c1ccoc1)n2C1CCCCC1	-	-	<1 µM
COc1cc(C(=O)N2[C@@H](c3nccs3)[C@@H](c3cnccn3)C[C@@]2(Cc2ccsn2)C(=O)O)ccc1C(C)(C)C	Genotype 1A	-	<0.15 µM
CCc1nc(N2CCN(C(=O)c3ccccc3)CC2)cc(N(C)c2ccc(N(C)Cc3ccccc3)cc2)n1	-	-	3 µg/mL
CC(C)CC(=O)N1c2ccccc2NC2=C(C(=O)CC(C)(C)C2)C1c1ccc(Cl)cc1	-	-	>33.3 µM
CCc1ccc(C(=O)OCc2ccccc2)c(Nc2ccc(N3CCOCC3)cc2)n1	-	-	3 µg/mL
CCN1CCC(NC(=O)c2ccc3c(c2)nc(-c2ccoc2)n3C2CCCCC2)(C(=O)Nc2ccc(-c3nc(C(=O)O)cs3)cc2)CC1	-	-	<0.5 µM
O=C(O)/C(=C/c1ccc(-c2ccccc2)o1)NC(=O)c1ccco1	-	-	<10 µM
O=C(O)Cc1cccc(NC(=O)c2ccc3c(c2)nc(-c2ccoc2)n3C2CCCCC2)c1	-	-	10–25 µM
O=C(NC(Cc1c[nH]c2ccc(O)cc12)C(=O)O)c1ccc2c(c1)nc(-c1ccoc1)n2C1CCCCC1	-	-	0.25 µM
O=C(NC1(C(=O)Nc2ccc3[nH]c(C(=O)O)c(I)c3c2)CCNCC1)c1ccc2c(c1)nc(-c1ccoc1)n2C1CCCCC1	-	-	0.5–5 µM
Cc1ccc(Nn2c(=O)c(C3=NS(=O)(=O)c4ccccc4N3)c(O)c3cccnc32)cc1	genotype 1b	-	>5 µM
O=C1NC(=S)S/C1=C/c1ccc(-c2ccc([N+](=O)[O-])cc2Cl)o1	-	-	30 µM
Nc1ccc(C(=O)N/C(=C\c2ccc(-c3ccccc3Cl)s2)C(=O)O)cc1	-	-	11–30 µM
COc1ccc(C2C3=C(CC(C)(C)CC3=O)Nc3ccccc3N2C(C)=O)cc1OCc1ccccc1	-	-	>15.9 µM
Cc1c(C(=O)O)sc2ccc(NC(=O)C3(NC(=O)c4ccc5c(c4)nc(-c4ccoc4)n5C4CCCCC4)CCCC3)cc12	-	-	<0.5 µM
CC(C)CCN1C(=O)C(C2=NS(=O)(=O)c3ccccc3N2)=C(O)[C@@H]1C(C)(C)C	-	-	0.019 µM
CC1(C)CC(=O)C2=C(C1)Nc1ccccc1N(C(=O)c1ccccc1)C2c1ccc([N+](=O)[O-])cc1	-	-	>32.66 µM
O=C(N[C@H](C(=O)O)c1c[nH]c2ccc(O)cc12)c1ccc2c(c1)nc(-c1cnccn1)n2C1CCCCC1	-	-	<1 µM
O=C(O)c1cnc(N(C(=O)c2ccc(Oc3ccccc3)cc2)C2CCCCC2)s1	-	-	5.5 µM
CC(C)CCN1C(=O)C(C2=NS(=O)(=O)c3ccccc3N2)=C(O)[C@@H]1C(C)C	-	-	0.2 µM
CCN(CC)c1ccc(C2Nc3cc(C(=O)c4ccccc4)ccc3NC3=C2C(=O)CC(C)(C)C3)cc1	-	-	>42.7 µM
[N-]=[N+]=Nc1ccc(C[C@H](NC(=O)c2ccc3c(c2)nc(-c2ccoc2)n3C2CCCCC2)C(=O)O)cc1OCC(=O)O	-	-	<1 µM
O=C(O)c1nc(-c2ccccn2)[nH]c(=O)c1O	-	-	>50 µM
COC(=O)[C@H](Cc1c[nH]c2ccc(O)cc12)NC(=O)c1ccc2c(c1)nc(-c1ccoc1)n2C1CCCCC1	-	-	<1 µM
O=C(NS(=O)(=O)Cc1ccccc1)c1nc(-c2cccs2)[nH]c(=O)c1O	-	-	>50 µM
O=C1C[C@H](c2ccccc2OCc2ccccc2)CC2=C1[C@H](c1cccc(OC(=O)c3ccc(Cl)cc3)c1)Nc1ccccc1N2	-	-	70.1 µM
NC(=O)c1nccn([C@@H]2O[C@H](CO)[C@@H](O)[C@H]2O)c1=O	-	-	0.1 µM
CN(C(=O)Cc1ccc2c(c1)nc(-c1ccoc1)n2C1CCCCC1)[C@H](Cc1c[nH]c2ccccc12)C(=O)O	-	-	1–5 µM
CCSc1nc(Nc2ccc(N(CC)CC)cc2)cc(N2CCN(C(=O)c3ccnc(C)c3)CC2)n1	-	-	3 µg/mL
O=C(O)C[C@H](Cc1ccc(-c2nn[nH]n2)cc1)NC(=O)c1ccc2c(c1)nc(-c1ccoc1)n2C1CCCCC1	-	-	<1 µM
CCSc1nc(Nc2ccc(N(CC)CC)cc2)cc(N2CCN(C(=O)c3ncccn3)CC2)n1	-	-	3 µg/mL
O=C(O)c1nc(-c2ncc[nH]2)[nH]c(=O)c1O	-	-	50 µM
COC(=O)[C@H](Cc1c[nH]c2ccccc12)NC(=O)c1ccc2nc(-c3ccccc3)c(-c3ccccc3)nc2c1	-	-	>50 µM
C[C@@H](NC(=O)c1ccc2c(c1)nc(-c1ccoc1)n2C1CCCCC1)C(=O)Nc1ccc(C2=CC(=O)OC2)cc1	-	-	0.5–5 µM
CC1(C)CC(=O)C2=C(C1)Nc1cc(C(=O)c3ccccc3)ccc1NC2c1cccc([N+](=O)[O-])c1	-	-	>42.7 µM
CCSc1nc(Nc2ccc(N(CC)CC)cc2)cc(N2CCN(C(=O)c3ccccc3)CC2)n1	-	-	3 µg/mL
COc1cc(C(=O)N2[C@@H](c3nccs3)[C@@H](c3cnccn3)C[C@@]2(Cc2ccccc2)C(=O)O)ccc1C(C)(C)C	Genotype 1A	-	>1 µM
O=C(N[C@H](C(=O)O)c1c[nH]c2ccc(O)cc12)c1ccc2c(c1)nc(-c1ccc(S(=O)(=O)O)o1)n2C1CCCCC1	-	-	1–5 µM
O=C1CC(c2ccccc2OCc2ccccc2)CC2=C1C(c1ccccc1)N(C(=O)c1ccccc1)c1ccccc1N2	-	-	>42.7 µM
O=C(O)COc1ccc(CC[C@H](NC(=O)c2ccc3c(c2)nc(-c2ccoc2)n3C2CCCCC2)C(=O)O)cc1	-	-	<1 µM
COc1cc(C(=O)N2[C@@H](c3nccs3)[C@@H](c3cnccn3)C[C@@]2(Cc2ccccn2)C(=O)O)ccc1C(C)(C)C	Genotype 1A	-	>1 µM
O=C(N[C@H](C(=O)O)c1c[nH]c2ccc(O)cc12)c1ccc2c(c1)nc(C1CCCO1)n2C1CCCCC1	-	-	1–5 µM
CC(NC(=O)c1ccc2c(c1)nc(-c1ccoc1)n2C1CCCCC1)C(=O)NC(C)C(=O)Nc1ccc(CCCC(=O)O)cc1	-	-	5–25 µM
COc1ccc(CNC(=O)c2ccc3c(c2)nc(-c2ccccn2)n3C2CCCCC2)c(OC)c1OC	-	-	10–25 µM
COC(=O)[C@H](Cc1c[nH]c2ccccc12)NC(=O)c1ccc2nc(-c3ccc(F)cc3)c(-c3ccc(F)cc3)nc2c1	-	-	>50 µM
COc1cc(C(=O)N2[C@@H](c3ncc(C)s3)[C@@H](c3cnccn3)C[C@@]2(Cc2ccsn2)C(=O)O)ccc1C(C)(C)C	genotype 1b	-	<0.1 µM
CCCCc1ccc(C(=O)O)c(N(C)c2ccc(N3CCNCC3)cc2)n1	-	-	3 µg/mL
COC(=O)[C@H](Cc1ccc(Nc2c(O)c(=O)c2=O)cc1)NC(=O)c1ccc2c(c1)nc(-c1ccoc1)n2C1CCCCC1	-	-	<1 µM
O=C(O)c1ccc2nc(-c3ccc(F)cc3)c(-c3ccc(F)cc3)nc2c1	-	-	<10 µM
N#Cc1c(Cl)cc(Cl)cc1Oc1ccccc1C(=O)CC(=O)C(=O)O	-	-	0.056–83.5 µM
Cn1cc([C@H](NC(=O)c2ccc3c(c2)nc(-c2ccoc2)n3C2CCCCC2)C(N)=O)c2cc(OC(C)(C)C(=O)O)ccc21	-	-	1–5 µM
CCN1CCC(NC(=O)c2ccc3c(c2)nc(-c2ccoc2)n3C2CCCCC2)(C(=O)Nc2ccc(-c3nc(C(N)=O)cs3)cc2)CC1	-	-	<0.5 µM
Cc1cc(-c2nc3cc(C(=O)N[C@H](C(=O)O)c4c[nH]c5ccc(O)cc45)ccc3n2C2CCCCC2)nn1C	-	-	5–10 µM
O=C(O)/C(=C/c1ccc(-c2ccccc2)o1)NC(=O)c1cccnc1	-	-	<10 µM
CC(C)CCN1C(=O)C(C2=NS(=O)(=O)c3ccccc3N2)=C(O)[C@@H]1Cc1ccccc1	-	-	3.5 µM
COc1cc(C(=O)N2[C@@H](c3ncc(C)s3)[C@@H](c3cnccn3)C[C@@]2(Cc2nccs2)C(=O)O)ccc1C(C)(C)C	Genotype 1A	-	<0.15 µM
N#Cc1cccc(S(=O)(=O)N(Cc2c(Cl)cccc2Cl)c2cccc(C(=O)NC3CCC3)c2)c1	1b	-	0.04 µM
C[C@@H](NC(=O)c1ccc2c(c1)nc(-c1ccoc1)n2C1CCCCC1)C(=O)Nc1ccc(OC(C)(C)C(=O)O)cc1	-	-	0.5–5 µM
CCC[C@]1(CC(=O)O)OCCc2c1[nH]c1c(C)ccc(C#N)c21	Genotype 4	-	17.8 µM
CSc1nc(C(=O)O)c(O)c(=O)[nH]1	-	-	<50 µM
Cc1ccc(-c2nc3cc(C(=O)N[C@@H](Cc4c[nH]c5ccc(O)cc45)C(=O)O)ccc3nc2-c2ccc(Cl)cc2)cc1	-	-	<10 µM
O=C(NC(=O)c1ccc2c(c1)nc(-c1ccoc1)n2C1CCCCC1)OCc1ccccc1	-	-	5–10 µM
Nc1cc(Cn2c(C(=O)O)c(-c3ccc[nH]c3=O)c3cc(C(F)(F)F)ccc32)ccn1	-	nucleotide incorporation / binding	0.015 µM
CC(C)CCN1CC(O)=C(C2=NS(=O)(=O)c3ccccc3N2)C1=O	-	-	2.06 µM
O=c1[nH]c(-c2cccs2)nc(P(=O)(O)O)c1O	-	-	>50 µM
CC(C)CCN1C(=O)C(C2=NS(=O)(=O)c3ccccc3N2)=C(O)C1(C)C	-	-	5.07 µM
O=C(N[C@H](C(=O)O)c1c[nH]c2ccc(O)cc12)c1ccc2c(c1)nc(-c1ccc3ccccc3n1)n2C1CCCCC1	-	-	5–10 µM
CC(C)(C)CC[C@@]1(C)C(=O)C(C2=NS(=O)(=O)c3cc(NS(C)(=O)=O)ccc3N2)=C(O)c2ccccc21	1b	luciferase	0.016 µM
O=c1c(C2=NS(=O)(=O)c3ccccc3N2)c(O)c2cc(F)ccc2n1CCC1CC1	-	-	0.1 µM
Cc1cccc(C(=O)N/C(=C\c2ccc(-c3ccccc3)o2)C(=O)O)c1	-	-	11–30 µM
CC(C)CCN1C(=O)C(C2=NS(=O)(=O)c3ccccc3N2)=C(O)[C@]1(C)C(C)C	-	-	0.25 µM
O=C1CC(c2ccccc2)CC2=C1C(c1ccccc1OCc1ccccc1)Nc1ccccc1N2	-	-	>27.34 µM
O=C(N[C@@H](Cc1c[nH]c2ccc(O)cc12)C(=O)O)c1ccc2nc(-c3ccc(F)cc3)c(-c3ccc(F)cc3)nc2c1	-	-	<10 µM
CS(=O)(=O)Nc1nc(-c2cccs2)nc(C(=O)O)c1O	-	-	>50 µM
O=C(O)/C(=C/c1ccc(-c2ccccc2Cl)s1)NC(=O)c1cccnc1	-	-	<10 µM

9 of the rows above, restated:

smiles | strain | method | result
Cc1cc(-c2nc3cc(C(=O)N[C@H](C(=O)O)c4c[nH]c5ccc(O)cc45)ccc3n2C2CCCCC2)nn1C | - | - | 5–10 µM
COc1cc(C(=O)N2[C@@H](c3nccs3)[C@@H](c3cnccn3)C[C@@]2(Cc2ccccn2)C(=O)O)ccc1C(C)(C)C | Genotype 1A | - | >1 µM
COc1cc(C(=O)N2[C@@H](c3ncc(C)s3)[C@@H](c3cnccn3)C[C@@]2(Cc2ccsn2)C(=O)O)ccc1C(C)(C)C | genotype 1b | - | <0.1 µM
O=c1c(C2=NS(=O)(=O)c3ccccc3N2)c(O)c2cc(F)ccc2n1CCC1CC1 | - | - | 0.1 µM
COc1cc(C(=O)N2[C@@H](c3nccs3)[C@@H](c3cnccn3)C[C@@]2(Cc2ccsn2)C(=O)O)ccc1C(C)(C)C | Genotype 1A | - | <0.15 µM
O=C(O)/C(=C/c1ccc(-c2ccccc2)o1)NC(=O)c1cccnc1 | - | - | <10 µM
O=C1CC(c2ccccc2OCc2ccccc2)CC2=C1C(c1ccccc1)N(C(=O)c1ccccc1)c1ccccc1N2 | - | - | >42.7 µM
Cc1cccc(C(=O)N/C(=C\c2ccc(-c3ccccc3)o2)C(=O)O)c1 | - | - | 11–30 µM
CSc1nc(C(=O)O)c(O)c(=O)[nH]1 | - | - | <50 µM